Assay results reported in paper doi:10.1101/2024.08.23.608024.

How the values were obtained:
[1] = tested on: AgI/II (antigen I/II) fragment; assay: AlphaScreen
[2] = target: T1, GbpC (glucan-binding protein C), extracellular fragment (Streptococcus mutans) (UniProt Q8DTF1); assay: AlphaScreen; settings: residues 111-522
T1 sequence (looked up): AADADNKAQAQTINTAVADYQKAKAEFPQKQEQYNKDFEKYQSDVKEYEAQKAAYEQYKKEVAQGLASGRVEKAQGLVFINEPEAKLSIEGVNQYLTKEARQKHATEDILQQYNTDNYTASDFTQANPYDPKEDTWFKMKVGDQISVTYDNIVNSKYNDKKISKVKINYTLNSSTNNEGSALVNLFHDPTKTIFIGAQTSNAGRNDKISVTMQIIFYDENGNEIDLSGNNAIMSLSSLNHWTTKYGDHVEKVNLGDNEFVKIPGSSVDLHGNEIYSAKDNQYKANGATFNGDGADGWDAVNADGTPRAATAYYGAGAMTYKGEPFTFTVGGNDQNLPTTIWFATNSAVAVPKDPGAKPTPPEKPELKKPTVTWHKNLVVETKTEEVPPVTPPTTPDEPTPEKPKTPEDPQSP

Sequence | binding result [1] | binding result [2]
AGATACCAATACGCTGCCCCGCCGGTCCCGAGCTACAACACTTTACGCCCCCCTCCCCGCCACTGGTAACGACATC [A96 (flanked)] | binds more weakly | –
AGATACCAATACGCTGCCTTCTTGAAAAAGGGTAGCGCAGGCCGCTAATGACATAACTGCCACTGGTAACGACATC [A30] | binds more weakly | –
AGATACCAATACGCTGCCTAGCCCCTACCCTGTTGCTCCCCCTCGCCCCTCTCACCCCGCCACTGGTAACGACATC [A39 (flanked)] | binds more weakly | –
AGATACCAATACGCTGCCATACCCACCCATCACCGAGTCGACACTCACCTAACAGCCGGCCACTGGTAACGACATC [A58] | – | binds more weakly
AGATACCAATACGCTGCCTTTCCAATTACGCCATGCATCACCCCTAAAATCTGAATACGCCACTGGTAACGACATC [A65] | binds more weakly | –

A weaker result is weaker than the reference pair of the same experiment. For some assays here: Tags and fusion partners may be left off the protein sequences shown. For some assays here: The exact form of at least one protein or probe is not confirmed. For some assays here: At least one verdict rests on a figure or table, not on a statement of the authors.
